{
  "source": "paper PMC10233829",
  "about": "(ACS Omega, 2023)",
  "test_system": "PC3 cells",
  "test": "MTT assay, cytotoxic activity",
  "assay_type": "cell-based, human",
  "conditions": "HaCaT vs PC3",
  "experimental": "Metastatic prostate cancer (PC3) and human immortal keratinocyte (HaCaT) cell lines were purchased from the American Type Culture Collection (ATCC, Rockville, MD, USA) and cultured in MEM (minimal essential medium, Thermo Sci, USA), RPMI 1640 (Roswell Park Memorial Institute, Biowest SAS, France), and DMEM (Dulbecco’s Modified Eagle’s Medium, Biowest SAS, France). Cells were seeded in 6 mL medium in a tissue culture flask (50 mL) in a 37 °C/5% CO2 humidified incubator. […] MTT analysis was performed according to a previous study.[59] Untreated cells were used as controls. Cell absorbance results were inserted into the formula for the relative MTT level (%). It allows to calculate the viability of cells under the influence of the tested compounds. Cell viability was expressed as the percentage of MTT reduction in cells treated with tested compounds compared to the control sample. The relative MTT level was calculated using the formula [100%] = A/B × 100% where A—the test sample absorbance and B—the control sample absorbance.",
  "data": [
    {"smiles": "COc1cccc2c1C(=O)c1c(O)c3c(c(O)c1C2=O)C[C@@](O)(C(=O)CO)C[C@@H]3O[C@H]1C[C@H](N)[C@H](O)[C@H](C)O1", "note": "[doxorubicin, reference compound]", "values": [
      {"measurement": "SI (IC50 normal cell line/IC50 cancer cell line)", "result": 1.0}
    ]}
  ]
}
